ChEMBL document CHEMBL1135438, “Synthesis and pharmacological characterization of novel analogues of the nicotinic acetylcholine receptor agonist (+/-)-UB-165” (J Med Chem, 2002)

The chains behind the UniProt entries cited, without tags or fusion partners.
UniProt Q05941, whole entry, looked up: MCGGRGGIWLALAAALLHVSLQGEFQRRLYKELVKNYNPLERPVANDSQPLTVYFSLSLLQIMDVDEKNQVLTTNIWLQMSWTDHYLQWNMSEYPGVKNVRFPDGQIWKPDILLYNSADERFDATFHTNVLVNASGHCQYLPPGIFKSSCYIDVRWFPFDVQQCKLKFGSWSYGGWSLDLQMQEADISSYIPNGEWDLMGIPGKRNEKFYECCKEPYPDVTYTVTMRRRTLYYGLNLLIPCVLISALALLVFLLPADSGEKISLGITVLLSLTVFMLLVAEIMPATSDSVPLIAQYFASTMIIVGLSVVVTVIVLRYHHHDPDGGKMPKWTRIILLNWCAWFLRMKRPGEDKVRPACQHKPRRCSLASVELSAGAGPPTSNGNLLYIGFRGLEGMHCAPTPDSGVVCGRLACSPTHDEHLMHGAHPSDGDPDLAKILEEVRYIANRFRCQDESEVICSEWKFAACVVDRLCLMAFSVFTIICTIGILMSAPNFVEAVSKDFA

Key:
[1] = Ratio of Ki (binding affinity) relative to activation potency
[2] = Compound was tested for its potency at Nicotinic acetylcholine receptor alpha3-beta4 relative to that of Nicotinic acetylcholine receptor alpha4-beta2
[3] = biological target: Neuronal acetylcholine receptor subunit alpha-7 (Rattus norvegicus) (UniProt Q05941); assay: Compound was tested for its potency at Nicotinic acetylcholine receptor alpha-7 relative to that of Nicotinic acetylcholine receptor alpha4-beta2

## CC(=O)C1=CCCC2CCC1N2 (stereo not drawn)
[1]
  Ratio: 90
[2]
  Affinity ratio: 20.3
[3]
  Affinity ratio: 1470
